Compound potency records, mixed from different reports. Data source: NIAID ChemDB in PubChem.

Shared fields: enzyme or target tests

ICn is the concentration giving n% inhibition.

C=CC1CC1(NC(=O)[C@@H]1C[C@@H](Oc2cc(-c3ccccc3)nc3cc(OC)ccc23)CN1C(=O)[C@@H](NC(=O)OC(C)(C)C)C(C)(C)C)C(=O)NS(=O)(=O)C1(C(=O)Nc2c(C)noc2C)CC1 ; protein: NS3/NS4A protease ; agent: Hepatitis C virus ; read-out: IC50 ; strain: BMS ; value: <0.05 µM
Cc1cc(-c2nc3cc(C(=O)O)ccc3n2C2CCCCC2)cc2ccc(-c3ccccc3-c3ccc(Cl)cc3)nc12 ; dose: 100 µM ; protein: NS5B polymerase ; agent: Hepatitis C virus ; read-out: inhibition ; value: 97.98%
Cc1cc(SC2=C(O)CC(CCc3cc(Cl)c(N)c(Cl)c3)(C3CCCCC3)OC2=O)c(C(C)(C)C)cc1OS(=O)(=O)c1ccc(C#N)cc1 ; protein: Nonstructural protein 5B ; agent: Hepatitis C virus ; read-out: IC50 ; value: 1–10 µM
CC(=O)c1ccc(-c2cc(NS(=O)(=O)c3ccc(C)cc3C)c(C(=O)O)s2)s1 ; protein: NS3 ATPase ; agent: Hepatitis C virus ; read-out: IC50 ; value: <5 µM
COc1ccc(-c2ccc(Cl)cc2)c(-c2ccc3cc(-c4nc5cc(C(=O)O)ccc5n4CC4CCCO4)ccc3n2)c1 ; dose: 100 µM ; protein: NS5B polymerase ; agent: Hepatitis C virus ; read-out: inhibition ; value: 100%
C=CC1CC1(NC(=O)[C@@H]1C[C@@H](OC(=O)Nc2c(Cl)cccc2Cl)CN1C(=O)[C@@H](NC(=O)OC(C)(C)C)C(C)(C)C)C(=O)NS(=O)(=O)C1CC1 ; protein: NS3/NS4A protease ; agent: Hepatitis C virus ; read-out: IC50 ; strain: BMS/H77C/J416S ; value: 0.1–1 µM
Cc1cc(NS(=O)(=O)c2ccc(C(F)(F)F)cn2)c(C(C)(C)C)c(SC2=C(O)CC(C3CCCC3)(C3CCCC3)OC2=O)c1 ; protein: Nonstructural protein 5B ; agent: Hepatitis C virus ; read-out: IC50 ; value: 10–50 µM
CNC(=O)c1c(-c2ccc(F)cc2)oc2cc(C3CNC(=O)C3)c(OC)cc12 ; protein: Nonstructural protein 5B ; agent: Hepatitis C virus ; read-out: IC50 ; value: ≤0.5 µM
CO[C@H]1CCCCC1N(C(=O)c1ccc(Cl)cc1Cl)c1cc(-c2ccccc2)sc1C(=O)O ; protein: NS3 ATPase ; agent: Hepatitis C virus ; read-out: IC50 ; value: <5 µM
O=C(Nc1ccc2[nH]ncc2c1)c1cc(NCCN2CCCC2)c(F)cc1F ; protein: Reverse transcriptase ; agent: Hepatitis B virus ; read-out: IC50 ; value: 0.01–0.1 µg/mL
COc1ccc2c(O[C@@H]3C[C@@H](C(=O)N[C@@]4(C(=O)NS(=O)(=O)C5(CC6CC6)CC5)CC45CC5)N(C(=O)[C@@H](NC(=O)OC(C)(C)C)C(C)(C)C)C3)cc(-c3ccccc3)nc2c1 ; protein: NS3/NS4A protease ; agent: Hepatitis C virus ; read-out: IC50 ; strain: BMS ; value: 0.05–0.5 µM
O=C(O)c1nc(-c2sccc2NC(=O)C2CCc3ccccc3C2)[nH]c(=O)c1O ; protein: HCV polymerase ; agent: Hepatitis C virus ; read-out: IC50 ; value: <25 µM
CCN(CCO)c1cc(C(=O)Nc2ccc3cn[nH]c3c2)c(F)cc1F ; dose: 0.01 µg/mL ; protein: Reverse transcriptase ; agent: Hepatitis B virus ; read-out: inhibition ; value: 42%
C=CC1CC1(NC(=O)[C@@H]1C[C@@H](OC(=O)Nc2ccccc2C(C)(C)C)CN1C(=O)[C@@H](NC(=O)OC(C)(C)C)C(C)(C)C)C(=O)NS(=O)(=O)C1CC1 ; protein: NS3/NS4A protease ; agent: Hepatitis C virus ; read-out: IC50 ; strain: BMS/H77C/J416S ; value: 0.1–1 µM
O=C(Nc1ccc2[nH]ncc2c1)c1cc(NCCCn2ccnc2)c(F)cc1F ; dose: 0.01 µg/mL ; protein: Reverse transcriptase ; agent: Hepatitis B virus ; read-out: inhibition ; value: 48%
C=CC1CC1(NC(=O)[C@@H]1C[C@@H](OC(=O)N2CCCCC2)CN1C(=O)[C@@H](NC(=O)OC(C)(C)C)C(C)(C)C)C(=O)NS(=O)(=O)C1CC1 ; protein: NS3/NS4A protease ; agent: Hepatitis C virus ; read-out: IC50 ; strain: BMS/H77C/J416S ; value: 0.1–1 µM
O=C(Nc1ccc2cn[nH]c2c1)c1cc(NCCc2ccccn2)c(F)cc1F ; dose: 0.01 µg/mL ; protein: Reverse transcriptase ; agent: Hepatitis B virus ; read-out: inhibition ; value: 30%
C=CCCCCCCCCC1(S(=O)(=O)NC(=O)[C@]2(NC(=O)[C@@H]3C[C@@H](Oc4cc(-c5ccccc5)nc5cc(OC)ccc45)CN3C(=O)[C@@H](NC(=O)OC(C)(C)C)C(C)(C)C)C[C@@H]2C=C)CC1 ; protein: NS3/NS4A protease ; agent: Hepatitis C virus ; read-out: IC50 ; strain: BMS ; value: <0.05 µM
O=C(O)c1nc(-c2ccccc2NS(=O)(=O)c2ccccc2I)[nH]c(=O)c1O ; protein: HCV polymerase ; agent: Hepatitis C virus ; read-out: IC50 ; value: <100 µM
Cc1ccccc1CN(C(=O)C1CCC1)c1cc(-c2ccccc2)sc1C(=O)O ; protein: NS3 ATPase ; agent: Hepatitis C virus ; read-out: IC50 ; value: 5–20 µM
O=C(Nc1ccccc1-c1nc(C(=O)O)c(O)c(=O)[nH]1)NC1CCCc2ccccc21 ; protein: HCV polymerase ; agent: Hepatitis C virus ; read-out: IC50 ; value: <100 µM
O=C(O)c1ccc2c(c1)nc(-c1cc3ccc(-c4ccccc4-c4ccccc4)nc3cc1F)n2C1CCCCC1 ; dose: 100 µM ; protein: NS5B polymerase ; agent: Hepatitis C virus ; read-out: inhibition ; value: 98.58%
O=C1OC(CCc2ccc(O)cc2)(C2CCCC2)CC(O)=C1Sc1cccc2ccccc12 ; protein: Nonstructural protein 5B ; agent: Hepatitis C virus ; read-out: IC50 ; value: 1–10 µM
C=C[C@H]1C[C@@]1(NC(=O)[C@@H]1C[C@@H](Oc2cc(-c3ccccc3)nc3cc(OC)ccc23)CN1C(=O)[C@@H](NC(=O)OC(C)(C)C)C(C)(C)C)C(=O)NS(=O)(=O)C1(Cc2ccccn2)CC1 ; protein: NS3/NS4A protease ; agent: Hepatitis C virus ; read-out: IC50 ; strain: BMS ; value: <0.05 µM
CCc1cc2c(C(=O)NC)c(-c3ccc(F)cc3)oc2cc1N(CCOC)S(C)(=O)=O ; protein: Nonstructural protein 5B ; agent: Hepatitis C virus ; read-out: IC50 ; value: ≤0.5 µM
C=CCC1(S(=O)(=O)NC(=O)C2(NC(=O)[C@@H]3C[C@@H](Oc4cc(-c5ccccc5)nc5cc(OC)ccc45)CN3C(=O)[C@@H](NC(=O)OC(C)(C)C)C(C)(C)C)CC2)CC1 ; protein: NS3/NS4A protease ; agent: Hepatitis C virus ; read-out: IC50 ; strain: BMS ; value: <0.05 µM
C=CC1CC1(NC(=O)[C@@H]1C[C@@H](OC(=O)Nc2cc(C)ccc2-n2nccn2)CN1C(=O)[C@@H](NC(=O)OC(C)(C)C)C(C)(C)C)C(=O)NS(=O)(=O)C1CC1 ; protein: NS3/NS4A protease ; agent: Hepatitis C virus ; read-out: IC50 ; strain: BMS/H77C/J416S ; value: <0.1 µM
O=C(Nc1cscc1-c1nc(C(=O)O)c(O)c(=O)[nH]1)NC1CCc2ccccc2NC1=O ; protein: HCV polymerase ; agent: Hepatitis C virus ; read-out: IC50 ; value: <25 µM
C=CC1CC1(NC(=O)[C@@H]1C[C@@H](OC(=O)Nc2ccccc2[N+](=O)[O-])CN1C(=O)[C@@H](NC(=O)OC(C)(C)C)C(C)(C)C)C(=O)NS(=O)(=O)C1CC1 ; protein: NS3/NS4A protease ; agent: Hepatitis C virus ; read-out: IC50 ; strain: BMS/H77C/J416S ; value: <0.1 µM
COc1ccc(-c2ccc(Cl)cc2)c(-c2ccc3cc(-c4[nH]c5cc(C(=O)O)ccc5c4C4CCCCC4)ccc3n2)c1 ; dose: 100 µM ; protein: NS5B polymerase ; agent: Hepatitis C virus ; read-out: inhibition ; value: 98.87%
O=C(O)c1nc(-c2sccc2NC(=O)C2CN(C(c3ccccc3)c3ccccc3)C2)[nH]c(=O)c1O ; protein: HCV polymerase ; agent: Hepatitis C virus ; read-out: IC50 ; value: <25 µM
CCC[C@]1(CC(=O)O)OCCc2c1[nH]c1c(C)ccc(C#N)c21 ; protein: NS5B polymerase ; agent: Hepatitis C virus ; read-out: IC50 ; strain: 320-10-3 genotype 1B ; value: 0.5 µM
NCCCCCC(=O)Nc1ccsc1-c1nc(C(=O)O)c(O)c(=O)[nH]1 ; protein: HCV polymerase ; agent: Hepatitis C virus ; read-out: IC50 ; value: <25 µM
O=C(O)c1ccc2c(c1)nc(-c1ccc3nc(-c4cnn(-c5ccccc5)c4)ccc3c1)n2C1CCCCC1 ; dose: 33 µM ; protein: NS5B polymerase ; agent: Hepatitis C virus ; read-out: inhibition ; value: 99.77%
CNC(=O)c1c(-c2ccc(F)cc2)oc2cc(N(C)S(=O)(=O)CC3CC3)c(OC)cc12 ; protein: Nonstructural protein 5B ; agent: Hepatitis C virus ; read-out: IC50 ; value: ≤0.5 µM
CCCN(C1=C(O)CC(C2CCCC2)(C2CCCC2)OC1=O)c1cccc(N)c1 ; protein: Nonstructural protein 5B ; agent: Hepatitis C virus ; read-out: IC50 ; value: 10–50 µM
O=C(O)c1ccc2c(c1)nc(-c1ccc3nc(-c4ccc5c(c4)CCCC5)ccc3c1)n2C1CCCCC1 ; dose: 100 µM ; protein: NS5B polymerase ; agent: Hepatitis C virus ; read-out: inhibition ; value: 99.82%
N#Cc1ccccc1-c1ccc(CN(C(=O)c2ccc(Cl)cc2Cl)c2cc(-c3ccccc3)sc2C(=O)O)s1 ; protein: NS3 ATPase ; agent: Hepatitis C virus ; read-out: IC50 ; value: <5 µM
CNC(=O)c1c(-c2ccc(F)cc2)oc2cc(N3CCOCC3)c(OCc3cccc(OC)c3)cc12 ; protein: Nonstructural protein 5B ; agent: Hepatitis C virus ; read-out: IC50 ; value: ≤0.5 µM
C=CC1CC1(NC(=O)[C@@H]1C[C@@H](OC(=O)Nc2cc(OC)ccc2-n2cccn2)CN1C(=O)[C@@H](NC(=O)OC(C)(C)C)C(C)(C)C)C(=O)NS(=O)(=O)C1CC1 ; protein: NS3/NS4A protease ; agent: Hepatitis C virus ; read-out: IC50 ; strain: BMS/H77C/J416S ; value: <0.1 µM
CC(C)N(C(=O)c1ccc(C(F)(F)F)cc1)c1cc(-c2ccccc2)sc1C(=O)O ; protein: NS3 ATPase ; agent: Hepatitis C virus ; read-out: IC50 ; value: <5 µM
COc1ccc(CCC2(C3CCCC3)CC(=O)C(C(=O)Cc3cccnc3)C(=O)O2)c(OC)c1 ; protein: Nonstructural protein 5B ; agent: Hepatitis C virus ; read-out: IC50 ; value: 1–10 µM
CC(C)CNc1cc(C(=O)Nc2ccc3cn[nH]c3c2)c(F)cc1F ; dose: 1 µg/mL ; protein: Reverse transcriptase ; agent: Hepatitis B virus ; read-out: inhibition ; value: 42%
O=C(O)c1ccc2c(c1)nc(-c1ccc3nc(-c4ccc(O)cc4O)ccc3c1)n2C1CCCCC1 ; dose: 100 µM ; protein: NS5B polymerase ; agent: Hepatitis C virus ; read-out: inhibition ; value: 101%
CCC(=O)N(Cc1ccc(C)cc1)c1cc(-c2ccccc2)sc1C(=O)O ; protein: NS3 ATPase ; agent: Hepatitis C virus ; read-out: IC50 ; value: 5–20 µM
COc1ccccc1NC(=O)Nc1cscc1-c1nc(C(=O)O)c(O)c(=O)[nH]1 ; protein: HCV polymerase ; agent: Hepatitis C virus ; read-out: IC50 ; value: <25 µM
O=C1OC(CCc2ccc(O)cc2)(C2CCCC2)CC(O)=C1Cl ; protein: Nonstructural protein 5B ; agent: Hepatitis C virus ; read-out: IC50 ; value: 10–50 µM
CCCC(=O)N(Cc1ccccc1C)c1cc(-c2ccccc2)sc1C(=O)O ; protein: NS3 ATPase ; agent: Hepatitis C virus ; read-out: IC50 ; value: 5–20 µM

5 of the rows above, restated:

SMILES,dose,protein,agent,read-out,strain,value
O=C(O)c1ccc2c(c1)nc(-c1ccc3nc(-c4cnn(-c5ccccc5)c4)ccc3c1)n2C1CCCCC1,33 µM,NS5B polymerase,Hepatitis C virus,inhibition,,99.77%
O=C(Nc1ccccc1-c1nc(C(=O)O)c(O)c(=O)[nH]1)NC1CCCc2ccccc21,,HCV polymerase,Hepatitis C virus,IC50,,<100 µM
O=C1OC(CCc2ccc(O)cc2)(C2CCCC2)CC(O)=C1Cl,,Nonstructural protein 5B,Hepatitis C virus,IC50,,10–50 µM
C=C[C@H]1C[C@@]1(NC(=O)[C@@H]1C[C@@H](Oc2cc(-c3ccccc3)nc3cc(OC)ccc23)CN1C(=O)[C@@H](NC(=O)OC(C)(C)C)C(C)(C)C)C(=O)NS(=O)(=O)C1(Cc2ccccn2)CC1,,NS3/NS4A protease,Hepatitis C virus,IC50,BMS,<0.05 µM
CNC(=O)c1c(-c2ccc(F)cc2)oc2cc(N3CCOCC3)c(OCc3cccc(OC)c3)cc12,,Nonstructural protein 5B,Hepatitis C virus,IC50,,≤0.5 µM

Two numbers with a dash give a range or band. Lines come from different laboratories, so protocols vary. Inhibition is in % at the dose shown (toxicity tests: loss of growth or viability). An empty or dashed field is not shown.